Data taken from paper PMC12526154, “Bioactive Compounds Discovery from French Guiana Plant Extracts Through Antitubercular Screening and Molecular Networking” (Plants, 2025).

What was measured:
[1] = system: IMR90 (embryonic lung fibroblasts); assay: Resazurin reduction cytotoxicity assay, IMR90
[2] = system: BEAS-2B (bronchial epithelial cells)
HepG2 cells = assay: Resazurin reduction cytotoxicity assay, HepG2

SMILES	TI (therapeutic index) [1]	TI (therapeutic index) [2]	TI (therapeutic index) (HepG2 cells)
COc1cc2oc(-c3ccc(O)c(O)c3)cc(=O)c2c(O)c1OC [Cirsiliol]	< 0.54		
COc1c(O)cc2oc(-c3ccc(O)cc3)cc(=O)c2c1O [Hispidulin]	> 0.9 and 0.9	> 1.5	> 1.5
C=Cc1c(C)c2cc3nc(c4c5[nH]c(cc6nc(cc1[nH]2)C(C)=C6CC)c(C)c5C(=O)[C@@H]4C(=O)OC)[C@@H](CCC(=O)O)[C@@H]3C [Pheophorbide A]	0.68	0.29	>4.9
C/C1=C\CC(C)(C)/C=C/C(=O)/C(C)=C/CC1 [Zerumbone]	< 0.4	< 0.74	

“And” between values parts separate entries of the source, which are not always exact repeats. Identical values can stand only once. The index is printed as in the source, without its formula.
